Results taken from patent publication US8093037B2, “Engineered microorganisms with enhanced fermentation activity” (Verdezyne, Inc., priority 2009, dated 2012).

B1: XI-R: native xylose isomerase of Ruminococcus flavefaciens strain 17, SEQ ID NO: 31 (protein, listed as Ruminococcus flavefaciens)
chain: MEFFSNIGKIQYQGPKSTDPLSFKYYNPEEVINGKTMREHLKFALSWWHTMGGDGTDMFGCGTTDKTWGQSDPAARAKAKVDAAFEIMDKLSIDYYCFHDRDLSPEYGSLKATNDQLDIVTDYIKEKQGDKFKCLWGTAKCFDHPRFMHGAGTSPSADVFAFSAAQIKKALESTVKLGGNGYVFWGGREGYETLLNTNMGLELDNMARLMKMAVEYGRSIGFKGDFYIEPKPKEPTKHQYDFDTATVLGFLRKYGLDKDFKMNIEANHATLAQHTFQHELRVARDNGVFGSIDANQGDVLLGWDTDQFPTNIYDTTMCMYEVIKAGGFTNGGLNFDAKARRGSFTPEDIFYSYIAGMDAFALGFRAALKLIEDGRIDKFVADRYASWNTGIGADIIAGKADFASLEKYALEKGEVTASLSSGRQEMLESIVNNVLFSL

Assay: Western blot of His-tagged xylose isomerase constructs expressed in S. cerevisiae BY4742
Parameters: species or system Saccharomyces cerevisiae
Conditions: p426GPD

Molecule | expression of xylose isomerase (western) | expression of xylose isomerase (western) (listed as wild type Piromyces xylose isomerase) | expression of xylose isomerase (western) (listed as wild type R. flavefaciens xylose isomerase)
XI-P: xylose isomerase from Piromyces strain E2, SEQ ID NO: 35 | expressed in both the soluble and insoluble fractions | expressed in the soluble fraction | 
B1 | expressed in both the soluble and insoluble fractions |  | expressed in the soluble fraction
